A mixed list of measured activities; the numbers were collected in NIAID ChemDB.

All rows: whole-cell or culture tests; agent: Mycobacterium avium complex; measure: MIC50

Neighbouring rows are from separate reports.

CC[C@H]1OC(=O)C[C@@H](O)[C@H](C)[C@@H](O[C@@H]2O[C@H](C)[C@H](O)[C@H](N(C)C)[C@H]2O)[C@@H](CCOc2ccccc2)C[C@@H](C)C(=O)/C=C/C(C)=C/[C@@H]1COC1O[C@H](C)[C@@H](O)[C@@H](OC)[C@H]1OC ; strain or isolate: 28 strains ; result: ≥64 µg/mL
CC[C@H]1OC(=O)[C@H](C)[C@@H](O[C@H]2C[C@@](C)(OC)[C@@H](O)[C@H](C)O2)[C@H](C)[C@@H](O[C@@H]2O[C@H](C)C[C@H](N(C)C)[C@H]2O)[C@](C)(OC)C[C@@H](C)C(=O)[C@H](C)[C@@H](O)[C@]1(C)O ; strain or isolate: 25 isolates ; result: 4 µg/mL
C[C@H]1NCc2cc(-c3ccc4c(=O)c(C(=O)O)cn(C5CC5)c4c3OC(F)F)ccc21 ; strain or isolate: 8 strains ; result: 4 µg/mL
C[C@@H]1CN(c2c(F)c(N)c3c(=O)c(C(=O)O)cn(C4CC4)c3c2F)C[C@H](C)N1 ; strain or isolate: 20 strains ; result: 0.25 µg/mL
CCCCNc1nc2c(s1)c1c(O)c3c(O)c(C)c4c(c32)C(=O)[C@@](C)(O/C=C/[C@H](OC)[C@@H](C)[C@@H](OC(C)=O)[C@H](C)[C@H](O)[C@H](C)[C@@H](O)[C@@H](C)/C=C/C=C(/C)C(=O)N1)O4 ; strain or isolate: 20 strains ; result: 8 µg/mL
Cc1cc(-c2cc3c(cc2F)c(=O)c(C(=O)O)cn3C2CC2)cc(C)n1 ; strain or isolate: 30 strains ; result: 0.5 µg/mL
CC[C@H]1OC(=O)[C@H](C)[C@@H](O[C@H]2C[C@@](C)(OC)[C@@H](O)[C@H](C)O2)[C@H](C)[C@@H](O[C@@H]2O[C@H](C)C[C@H](N(C)C)[C@H]2O)[C@](C)(O)C[C@@H](C)C(=O)[C@H](C)[C@@H](O)[C@]1(C)O ; strain or isolate: 28 strains ; result: 32 µg/mL
CC1COc2c(N3CCN(C)CC3)c(F)cc3c(=O)c(C(=O)O)cn1c23 ; strain or isolate: 25 isolates ; result: >8 µg/mL
CC[C@H]1OC(=O)[C@H](C)[C@@H](O[C@H]2C[C@@](C)(OC)[C@@H](O)[C@H](C)O2)[C@H](C)[C@@H](O[C@@H]2O[C@H](C)C[C@H](N(C)C)[C@H]2O)[C@](C)(O)C[C@@H](C)CN(C)[C@H](C)[C@@H](O)[C@]1(C)O ; strain or isolate: 28 strains ; result: 16 µg/mL
CN1CCN(CCCN=c2cc3n(-c4ccc(Cl)cc4)c4ccccc4nc-3cc2Nc2ccccc2)CC1 ; strain or isolate: 10 strains (HIV+) ; result: 0.45 µg/mL
O=C(O)c1cn(C2CCCCC2)c2cc(NC3CCCCC3)c(F)cc2c1=O ; result: >200 µM
NC1CCN(c2c(F)cc3c(=O)c(C(=O)O)cn(C4CC4)c3c2Cl)C1 ; strain or isolate: 25 isolates ; result: >8 µg/mL
O=C(O)c1cn(C2CCCC2)c2cc(NC3CCCC3)c(F)cc2c1=O ; result: >200 µM
C[C@H]1NCc2cc(-c3ccc4c(=O)c(C(=O)O)cn(C5CC5)c4c3OC(F)F)ccc21 ; strain or isolate: 6 strains ; result: 2 µg/mL
CN1CCCC1CCN=c1cc2n(-c3ccc(Cl)cc3)c3ccccc3nc-2cc1Nc1ccccc1 ; strain or isolate: 10 strains (HIV+) ; result: 0.4 µg/mL
CC1COc2c(N3CCN(C)CC3)c(F)cc3c(=O)c(C(=O)O)cn1c23 ; strain or isolate: 18 strains ; result: 12.5 µg/mL
O=C(O)c1cn(C2CCCC2)c2cc(NC3CCCC3)c([N+](=O)[O-])cc2c1=O ; result: 81 µM
CC[C@H]1OC(=O)[C@H](C)[C@@H](O[C@H]2C[C@@](C)(OC)[C@@H](O)[C@H](C)O2)[C@H](C)[C@@H](O[C@@H]2O[C@H](C)C[C@H](N(C)C)[C@H]2O)[C@](C)(O)C[C@@H](C)CN(C)[C@H](C)[C@@H](O)[C@]1(C)O ; strain or isolate: 25 isolates ; result: >8 µg/mL
NCC[C@H](O)C(=O)N[C@@H]1C[C@H](N)[C@@H](O[C@H]2O[C@H](CN)[C@@H](O)[C@H](O)[C@H]2O)[C@H](O)[C@H]1O[C@H]1O[C@H](CO)[C@@H](O)[C@H](N)[C@H]1O ; strain or isolate: 25 isolates ; result: 16 µg/mL
O=C(O)c1cn(-c2ccc(F)cc2F)c2cc(Nc3ccc(F)cc3F)c([N+](=O)[O-])cc2c1=O ; result: >200 µM
CC[C@H]1OC(=O)[C@H](C)[C@@H](O[C@H]2C[C@@](C)(OC)[C@@H](OC(C)=O)[C@H](C)O2)[C@H](C)[C@@H](O[C@@H]2O[C@H](C)C[C@H](N(C)C)[C@H]2O)C(C)(O)C[C@@H](C)/C(=N\OCCCC2CCCCC2)[C@H](C)[C@@H](O)[C@]1(C)O ; strain or isolate: 27 strains ; result: 1.56 µg/mL
NC[C@@H]1O[C@H](O[C@H]2[C@@H](O)[C@H](O[C@@H]3[C@@H](O)[C@H](N)C[C@H](N)[C@H]3O[C@H]3O[C@H](CN)[C@@H](O)[C@H](O)[C@H]3N)O[C@@H]2CO)[C@H](N)[C@@H](O)[C@@H]1O ; strain or isolate: 25 isolates ; result: 32 µg/mL
Nc1cc2[nH]cc(C(=O)O)c(=O)c2cc1[N+](=O)[O-] ; result: >200 µM
CO[C@H]1/C=C/O[C@@]2(C)Oc3c(C)c(O)c4c(O)c(c5c(c4c3C2=O)NC2(CCN(CC(C)C)CC2)N=5)=NC(=O)/C(C)=C\C=C\[C@H](C)[C@H](O)[C@@H](C)[C@@H](O)[C@@H](C)[C@H](OC(C)=O)[C@@H]1C ; strain or isolate: 211 strains ; result: 0.35 µg/mL
CC[C@H]1OC(=O)[C@H](C)[C@@H](O[C@H]2C[C@@](C)(OC)[C@@H](O)[C@H](C)O2)[C@H](C)[C@@H](O[C@@H]2O[C@H](C)C[C@H](N(C)C)[C@H]2O)[C@](C)(O)C[C@@H](C)C(NCCOC)[C@H](C)[C@@H](O)[C@]1(C)O ; strain or isolate: 28 strains ; result: ≥64 µg/mL
C[C@@H]1CN(c2c(F)c(N)c3c(=O)c(C(=O)O)cn(C4CC4)c3c2F)C[C@H](C)N1 ; result: 1.56 µg/mL

Repeating the first 3 entries:

structure,strain or isolate,result
CC[C@H]1OC(=O)C[C@@H](O)[C@H](C)[C@@H](O[C@@H]2O[C@H](C)[C@H](O)[C@H](N(C)C)[C@H]2O)[C@@H](CCOc2ccccc2)C[C@@H](C)C(=O)/C=C/C(C)=C/[C@@H]1COC1O[C@H](C)[C@@H](O)[C@@H](OC)[C@H]1OC,28 strains,≥64 µg/mL
CC[C@H]1OC(=O)[C@H](C)[C@@H](O[C@H]2C[C@@](C)(OC)[C@@H](O)[C@H](C)O2)[C@H](C)[C@@H](O[C@@H]2O[C@H](C)C[C@H](N(C)C)[C@H]2O)[C@](C)(OC)C[C@@H](C)C(=O)[C@H](C)[C@@H](O)[C@]1(C)O,25 isolates,4 µg/mL
C[C@H]1NCc2cc(-c3ccc4c(=O)c(C(=O)O)cn(C5CC5)c4c3OC(F)F)ccc21,8 strains,4 µg/mL

A number after MIC or MFC names an inhibition level or a share of isolates.